PubChem BioAssay AID1259414, Drosophila RNAi Screening Center, 2018
The screen tested about 24,000 reagents; this is an unselected part of those with a known target gene and a result. Of all reagents, about 1,210 (5%) got an active call. 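Inactive calls also include excluded dsRNAs with several or no targets, genes unexpressed in JW18, and well A1, regardless of score.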 Unmarked entries are inactive. Names joined by + are all predicted targets of the reagent.

Screen: 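Host factors increasing or decreasing Wolbachia levels in cultured fly cells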 (primary screen)
Cell system: Drosophila JW18 cells infected with Wolbachia
Reagent: long dsRNA against Drosophila genes, 0.25 µg dsRNA per well of a 384-well plate
Time to read-out: 5 days
Challenge: cells persistently infected with Wolbachia before knock-down; no added drug
Detection: 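Automated imaging of bacterial rRNA staining divided by host cell count, reported as plate-normalised robust z-score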
Scale: Wolbachia per cell robust z: higher = more Wolbachia per host cell than the plate typical
Hit rule: 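Hit when robust z is 1.5 or more, or -1.5 or less, in at least two of three replicates; excludes dsRNAs with several or no targets, genes not expressed in JW18 and well A1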

gene knocked down | amplicon | Wolbachia per cell robust z, rep 1 | Wolbachia per cell robust z, rep 2 | Wolbachia per cell robust z, rep 3
CG15080 | DRSC06511 | 0.241 | 1.44 | 1.2
CG15080 | DRSC29374 | -0.144 | 0.14 | -0.473
CG4983 | DRSC02799 | 0.709 | -0.491 | 0.705
CG4983 | DRSC26444 | 0.851 | -0.147 | 1.37
CG4313 | DRSC18514 | -1.5 | 1.32 | -2.94
CG4313 | DRSC24627 | 0.927 | 2.02 | 0.0981
LManIII (Lysosomal alpha-mannosidase III) | DRSC03221 | -0.589 | -0.459 | -0.24
LManIII (Lysosomal alpha-mannosidase III) | DRSC29001 | 0.671 | 1.42 | 1.07
CG4452 | DRSC10422 | 1.25 | 0.0522 | -0.574
Ets98B (Ets at 98B) | DRSC16666 | -0.267 | -0.0933 | 0.385
Ets98B (Ets at 98B) | DRSC24625 | -0.84 | -1.76 | -0.222
rdgB (retinal degeneration B) | DRSC20365 | 0.012 | 0.0796 | 0.429
rdgB (retinal degeneration B) | DRSC27840 | -0.873 | -0.246 | 0.433
CG3408 | DRSC10360 | -0.878 | 0.144 | -0.552
CG12105 | DRSC08255 | -0.321 | 1.27 | 2.03
CG12105 | DRSC24635 | -0.0281 | 0.587 | -1.67
CG31145 | DRSC14206 | -1.88 | -0.859 | 0.224
CG31145 | DRSC14671 | -2.04 | 0.73 | 0.614
CG31145 | DRSC26758 | 0.699 | 0.972 | 2.54
Nup44A (Nucleoporin at 44A) | DRSC07248 | 1.4 | 1.34 | 2.5
Nup44A (Nucleoporin at 44A) | DRSC28141 | 0.116 | -0.474 | -0.61
Send2 (Spermathecal endopeptidase 2) | DRSC01906 | -0.763 | -1.22 | -1.03
mRpS18C (mitochondrial ribosomal protein S18C) | DRSC16538 | -0.206 | -3.87 | -0.756
mRpS18C (mitochondrial ribosomal protein S18C) | DRSC27054 | -2.31 | -0.0633 | 0.949
Apt1 (Acyl-protein thioesterase 1) | DRSC10348 | -0.305 | 0.405 | -0.663
sigmar (salivary glands marred) | DRSC04449 | -1.92 (active) | -0.883 | -2.03
Mbs (Myosin binding subunit) | DRSC09414 | -3.14 (active) | 0.837 | -2.03
Mbs (Myosin binding subunit) | DRSC10525 | 0.132 | -0.105 | -1.21
Mbs (Myosin binding subunit) | DRSC10553 | 0.137 | 0.637 | 0.306
Mbs (Myosin binding subunit) | DRSC24459 | -1.04 | -1.06 | -0.695
Mbs (Myosin binding subunit) | DRSC40735 | 0.721 | 1.31 | 0.436
CG13069 | DRSC09952 | 0.63 | 0.678 | -0.638
POLDIP2 (Polymerase (DNA-directed), delta interacting protein 2) | DRSC12194 | -2.24 | -0.489 | 0.569
CG6277 | DRSC16008 | -1.56 | 0.677 | -4.36
CG6277 | DRSC25150 | 0.155 | -1.66 | 0.669
Coa8 (Cytochrome c oxidase assembly factor 8) | DRSC17959 | -0.571 | -3.01 | -0.546
GluClalpha (Glutamate-gated chloride channel subunit alpha) | DRSC16680 | -3.14 | -1.3 | -4.81

A stretch of the results above, for reference:
gene knocked down | amplicon | Wolbachia per cell robust z, rep 1 | Wolbachia per cell robust z, rep 2 | Wolbachia per cell robust z, rep 3
mRpS18C (mitochondrial ribosomal protein S18C) | DRSC16538 | -0.206 | -3.87 | -0.756
mRpS18C (mitochondrial ribosomal protein S18C) | DRSC27054 | -2.31 | -0.0633 | 0.949
Apt1 (Acyl-protein thioesterase 1) | DRSC10348 | -0.305 | 0.405 | -0.663
sigmar (salivary glands marred) | DRSC04449 | -1.92 (active) | -0.883 | -2.03
Mbs (Myosin binding subunit) | DRSC09414 | -3.14 (active) | 0.837 | -2.03
Mbs (Myosin binding subunit) | DRSC10525 | 0.132 | -0.105 | -1.21

Further entries follow.
gene knocked down | amplicon | Wolbachia per cell robust z, rep 1 | Wolbachia per cell robust z, rep 2 | Wolbachia per cell robust z, rep 3
CG14302 | DRSC14781 | 0.913 | 0.931 | 0.677
IP3K1 + hpRNA:CR18854 | DRSC02218 | -1.2 | 0.574 | -1.02
Hs3st-A (Heparan sulfate 3-O sulfotransferase-A) | DRSC06508 | -0.22 | 0.351 | -0.479
Hs3st-A (Heparan sulfate 3-O sulfotransferase-A) | DRSC06509 | -2.65 | -0.271 | 0.0961
Hs3st-A (Heparan sulfate 3-O sulfotransferase-A) | DRSC30014 | 0.285 | 0.086 | 0.942
Clamp (Chromatin-linked adaptor for MSL proteins) | DRSC03718 | -0.0451 | 0.905 | -3.06
Clamp (Chromatin-linked adaptor for MSL proteins) | DRSC21682 | -0.611 | -0.411 | -0.114
Clamp (Chromatin-linked adaptor for MSL proteins) | DRSC29935 | 0.111 | 0.338 | -3.85
HPS1 (Hermansky-Pudlak Syndrome 1) | DRSC06195 | 0.461 | -0.258 | 0.363
CG16964 | DRSC02546 | 0.451 | -6.19 | -5.31
CG16964 | DRSC26799 | -8.26 | 0.0455 | -1.91
vnd (ventral nervous system defective) | DRSC18849 | -4.24 | -0.277 | 0.0609
vnd (ventral nervous system defective) | DRSC22487 | -2.4 | -0.0194 | 0.441
vnd (ventral nervous system defective) | DRSC25390 | 0.352 | -0.43 | -0.25
vnd (ventral nervous system defective) | DRSC41284 | 0.887 | -2.77 | 0.345
CG3091 | DRSC18274 | -0.867 | 1.42 | 1.3
ClC-a (Chloride channel-a) | DRSC14947 | -0.00377 | 1.33 | -3.63
ClC-a (Chloride channel-a) | DRSC14948 | 0.453 | 0.404 | -0.153
ClC-a (Chloride channel-a) | DRSC16142 | -3.87 | 1.01 | 1.14
Hr3 (Hormone receptor 3) | DRSC07441 | -1.62 | 0.0292 | -1.11
Hr3 (Hormone receptor 3) | DRSC40767 | 0.659 | 1.21 | -0.132
Polr3B (RNA polymerase III subunit B) | DRSC07536 | 2.21 | 0.265 | 0.663
Toll-6 | DRSC11304 | -0.23 | -0.705 | 1.21
CG31775 + CG42586 | DRSC01413 | -1.21 | -0.888 | -0.423
CG31775 + CG42586 | DRSC23266 | -0.142 | -3.53 | -6.07
CG32024 | DRSC21883 | -0.816 | -2.4 | -0.835
CG9752 | DRSC04562 | 0.684 | 0.968 | 0.156
Art6 (Arginine methyltransferase 6) | DRSC16583 | -0.315 | -5.95 | -0.327
Ir75b (Ionotropic receptor 75b) | DRSC10189 | 0.137 | -0.0244 | 0.338
Ir75b (Ionotropic receptor 75b) | DRSC41460 | -0.068 | 0.396 | -1.32
Naa60 (N(alpha)-acetyltransferase 60) | DRSC10301 | 0.116 | 0.673 | 0.311
Naa60 (N(alpha)-acetyltransferase 60) | DRSC26416 | -0.26 | 0.0841 | 0.267
